Measured values reported in patent US7628992.

Molecular target: HV62 peptide (synthetic 62-residue polypeptide corresponding to residues 33-94 of human VAMP-2), P63027

B1: native TeTx L chain (authentic L chain of tetanus toxin) (protein)
chain: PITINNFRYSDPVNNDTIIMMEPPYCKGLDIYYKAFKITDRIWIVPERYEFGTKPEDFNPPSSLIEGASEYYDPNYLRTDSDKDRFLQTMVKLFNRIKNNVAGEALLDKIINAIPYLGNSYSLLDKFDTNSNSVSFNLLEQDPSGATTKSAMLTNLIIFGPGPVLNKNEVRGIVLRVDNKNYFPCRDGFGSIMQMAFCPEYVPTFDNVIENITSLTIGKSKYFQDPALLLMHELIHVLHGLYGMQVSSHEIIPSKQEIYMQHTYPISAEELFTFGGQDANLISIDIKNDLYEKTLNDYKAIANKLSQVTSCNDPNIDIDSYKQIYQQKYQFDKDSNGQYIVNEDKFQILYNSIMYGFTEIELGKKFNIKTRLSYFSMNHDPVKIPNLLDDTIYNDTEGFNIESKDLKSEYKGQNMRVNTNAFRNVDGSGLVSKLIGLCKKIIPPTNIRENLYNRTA
  initial rate of substrate cleavage at 37° C. with 100 nM L chain: 45.6 pmol/min
